{
  "source": "patent US20110224133A1",
  "about": "(University of Southern California, priority 2008, published 2011)",
  "tested_on": "various human lymphoma cells",
  "assay": "Cell death in virus-associated and non-virus-associated lymphoma cells",
  "settings": "30 or 50 μM peptide overnight",
  "note": "Ends that are not written are not given here.",
  "data": [
    {"substance": "RRRQRRKKRGY-G-FVNLLFLVVE (RRRQRRKKRGYGFVNLLFLVVE; not fully specified (some residues); also: retro-inverso D-amino acids) [K-α2]", "values": [
      {"measurement": "cell death, KSHV-infected PEL cells (BCBL1, BCP-1, BC-3)", "value": "primarily targeted"},
      {"measurement": "cell death, KSHV/EBV-coinfected PEL cells (BC-1, JSC-1), EBV-immortalized Bob-B cells, non-virus-associated lymphoma cells (BJAB, K562, Jurkat-T)", "value": "not"}
    ]}
  ]
}
